Laboratory results: PubChem BioAssay AID624099 (ICCB-Longwood, 2012)

- Assay: 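Human genes that papillomavirus E2 requires to repress the HPV18 LCR promoter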 (primary screen)
- Cell system: human C33A cervical carcinoma cells (HPV-negative) stably expressing BPV1 E2 and an HPV18 LCR luciferase reporter
- Reagents: siRNA pool against human genes, 40 nM
- Timing: 72 h
- Read-out: 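Per-well luciferase luminescence, z-scored on each plate against the plate mean and SD with control wells left out, then averaged across three replicate plates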
- Reading the numbers: mean z-score and z-score: higher = stronger reporter signal, weaker E2 silencing
- Active means: 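Mean z ≥ 2 together with z ≥ 2 in two or more of the three replicates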
Here is one part, drawn at random, of about 21,000 reagents tested. 497 of them (2.4%) were called active. 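Higher z means weaker E2 silencing; only reporter increases were scored, and knock-downs that hurt cell survival may mask genuine repressor factors.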 Unmarked entries are inactive.

target | PubChem SID | mean z-score | z-score, replicate A | z-score, replicate B | z-score, replicate C
EIF3K (GeneID 27335) | SID134323945 | -0.57 | -0.83 | -0.54 | -0.33
ASAH1 (GeneID 427) | SID134310816 | 0.02 | 0.08 | 0.23 | -0.26
TMEM81 (GeneID 388730) | SID134329413 | -1.14 | -1.46 | -0.33 | -1.64
OR5L2 (GeneID 26338) | SID134328268 | -1.13 | -0.97 | -1.39 | -1.02
EDA (GeneID 1896) | SID134309996 | 0.55 | 0.41 | 0.52 | 0.71
CDH24 (GeneID 64403) | SID134322811 | -0.63 | -0.81 | -0.48 | -0.59
MTSS2 (GeneID 92154) | SID134325440 | 0.85 | 1.24 | 0.5 | 0.81
LOC157813 (retired record) (GeneID 157813) | SID134326417 | 0.55 | 0.61 | 0.69 | 0.33
CHRM2 (GeneID 1129) | SID134310912 | 0.18 | 0.22 | 0.05 | 0.27
PNMA5 (GeneID 114824) | SID134319216 | -0.55 | -0.78 | -0.54 | -0.34
LYSMD4 (GeneID 145748) | SID134320583 | -1.17 | -1.1 | -1.46 | -0.96
LOC401454 (retired record) (GeneID 401454) | SID134327969 | -0.75 | -0.59 | -0.61 | -1.04
IRX5 (GeneID 10265) | SID134323755 | -0.39 | -0.54 | -0.51 | -0.12
GMCL1 (GeneID 64395) | SID134321757 | -1.49 | -1.67 | -1.41 | -1.38
CTNNA1 (GeneID 1495) | SID134315005 | -0.92 | -0.75 | -0.89 | -1.12
LOC284890 (retired record) (GeneID 284890) | SID134326100 | 1.15 | 1.19 | 0.64 | 1.63
DEFA5 (GeneID 1670) | SID134317378 | 0.34 | 0.34 | 0.37 | 0.31
KLRC3 (GeneID 3823) | SID134315651 | -1.13 | -1.24 | -1.02 | -1.13
STX17 (GeneID 55014) | SID134324591 | -0.21 | -0.29 | -0.38 | 0.02
C3orf49 (GeneID 132200) | SID134320576 | -0.62 | -0.53 | -0.7 | –
TAFA1 (GeneID 407738) | SID134330009 | 0.33 | 0.07 | 0.47 | 0.46
DHTKD1 (GeneID 55526) | SID134313887 | -0.99 | -0.92 | -1.05 | -0.99
ADH5P4 (GeneID 642443) | SID134327649 | 0.88 | 0.71 | 0.85 | 1.07
DEFB132 (GeneID 400830) | SID134329622 | -0.39 | -0.04 | -0.47 | -0.65
ZNF101 (GeneID 94039) | SID134320876 | -0.69 | -0.96 | -0.62 | -0.48
VSIG10 (GeneID 54621) | SID134324075 | -0.49 | -0.18 | -0.61 | -0.68
GOLGA8DP (GeneID 100132979) | SID134328625 | -0.24 | -0.21 | -0.17 | -0.34
PLCXD1 (GeneID 55344) | SID134324169 | -0.09 | 0.17 | -0.22 | -0.22
KDM6B (GeneID 23135) | SID134325578 | -0.4 | -0.13 | -0.6 | -0.47

Taken from above:
LYSMD4 (GeneID 145748) [SID134320583], mean z-score = -1.17
DEFA5 (GeneID 1670) [SID134317378], z-score, replicate A: 0.34
Result of PLCXD1 (GeneID 55344) [SID134324169] in “z-score, replicate A”: 0.17
For “mean z-score”, TAFA1 (GeneID 407738) [SID134330009] reads 0.33

The results go on:
target | PubChem SID | mean z-score | z-score, replicate A | z-score, replicate B | z-score, replicate C
PRICKLE1 (GeneID 144165) | SID134320658 | 0.37 | 1.55 | -1.28 | 0.83
KIR3DL2 (GeneID 3812) | SID134323644 | 0.05 | -0.05 | 0.09 | 0.11
MIA (GeneID 8190) | SID134323855 | 1.05 | 1.06 | 1 | 1.09
PRAMEF9 (GeneID 343070) | SID134325102 | 0.18 | 0.05 | 0.03 | 0.46
GDPD2 (GeneID 54857) | SID134315159 | 0.55 | 0.23 | 0.31 | 1.1
GUCA1B (GeneID 2979) | SID134319184 | 0.82 | 1.01 | 0.72 | 0.72
SIDT1 (GeneID 54847) | SID134324329 | -0.91 | -1.03 | -0.9 | -0.79
SRSF11 (GeneID 9295) | SID134316240 | -0.06 | -0.06 | -0.2 | 0.09
GRID2IP (GeneID 392862) | SID134326327 | 0.85 | 0.83 | 0.94 | 0.77
GRID2IP (GeneID 392862) | SID134327862 | 0.26 | 0.3 | 0.16 | 0.32
SACK1F (GeneID 113828) | SID134319532 | 0.84 | 1.39 | 0.71 | 0.43
FBXL17 (GeneID 64839) | SID134326055 | -0.15 | 0 | -0.25 | -0.18
EIF3KP1 (GeneID 134505) | SID134326063 | 0.92 | 1.08 | 0.65 | 1.04
TPPP (GeneID 11076) | SID134323467 | 0.63 | 0.55 | 0.58 | 0.76
LOC286408 (retired record) (GeneID 286408) | SID134326133 | -1.16 | -1.28 | -1.06 | -1.13
MTFR2 (GeneID 113115) | SID134319534 | 0.33 | 0.52 | 0.34 | 0.11
SSX4 (GeneID 6759) | SID134321181 | -0.75 | -0.76 | -0.97 | -0.51
NDEL1 (GeneID 81565) | SID134322422 | 0.76 | 0.88 | 0.81 | 0.59
ROCK1 (GeneID 6093) | SID56478678 | 0.4 | 0.62 | 0.22 | 0.35
ELP6 (GeneID 54859) | SID134324355 | 1.15 | 1.07 | 1.36 | 1.03
OSMR (GeneID 9180) | SID134312982 | 1.08 | 1.45 | 1.02 | 0.79
KLK6 (GeneID 5653) | SID134311344 | -0.58 | -0.59 | -0.46 | -0.68
DNAL4 (GeneID 10126) | SID134323741 | -0.39 | -0.69 | -0.21 | -0.28
TMEM176B (GeneID 28959) | SID134320760 | 0.31 | 0.55 | 0 | 0.37
GPR37L1 (GeneID 9283) | SID134310935 | -0.19 | -0.29 | -0.21 | -0.06
DDIAS (GeneID 220042) | SID134312280 | -0.17 | 0 | -0.1 | -0.41
SLC16A13 (GeneID 201232) | SID134329357 | -1.2 | -1.14 | -1.37 | -1.09
C19orf38 (GeneID 255809) | SID134325900 | -1.19 | -0.78 | -1.44 | -1.37
